# Library screen at single concentrations

The values are deposited in ChEMBL (CHEMBL3988442, “University of Dundee, Small-Polar-MMV Screening Library” (2021)).

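Whole-cell growth test on Mycobacterium tuberculosis, read after 3 days in glucose-containing 7H9 medium; the read-out is not stated. Compounds at 500 µM. Higher reads as more growth inhibition (inferred: compounds with an IC50 in retests scored well above the rest). About 18,000 compounds were tested under these conditions; 7.9% (about 1,400) showed 50% or more at least once.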

The filed quantity is “Percent Effect” (%).
How 0% and 100% were set is not recorded. Most values in the screen are low, and negative values occur.
This is part of a subset picked to be rich in strong results.

Cc1nnc(SCCCN)s1 read 7.974%.
CSCC[C@@H](CO)NC(=O)c1cc(C(C)C)nn1C read 23.8%.
CNC(=O)[C@@H]1CCCN1CC1CCNCC1 read 5.695%.
COC(=O)C(CN)c1ccc(Cl)cc1 (stereo not drawn) read 8.82%.
CC[C@H](C)[C@H](N)C(=O)NCCc1noc(C(C)C)n1 read 10.18%.
CN(CC(N)=O)Cc1cccc(C#N)c1 read 13.48%.
CC(=O)NCCc1ccc(OC(F)F)cc1 read 49.62%.
CC(C)(C#N)C(=O)Nc1ccc2c(c1)NC(=O)CO2 read 12.18%.
CC(C)NC(=O)C(C)NC(=O)C1CCC1 (stereo not drawn) read 6.718%.
CN(C)c1nc(Cl)c(CN)s1 read -9.309%.
COc1ccc(CC(N)=O)cc1OC read -2.151%.
Nc1ncccc1CNC(=O)[C@H]1CCC[C@@H](O)C1 read 13.75%.
NC1CS(=O)(=O)Cc2ccccc21 (stereo not drawn) read 0.6493%.
N#Cc1cc(N2CCC[C@@H]2CO)nc2ccccc12 read -8.595%.
O=C(NCc1ccccc1CO)Nc1nncs1 read 4.505%.
CCc1ccc(CN(C)C(=O)c2cccn2C)nc1 read 69.97%.
CC(C)(C)SCC(=O)NCC(C)(C)N1CC[S+]([O-])CC1 read 3.251%.
CCN(CCS(=O)(=O)c1ccccc1)CC(C)C#N (stereo not drawn) read -6.662%.
CC[C@H]1COCCN1C(=O)c1ncc(F)cc1F read 4.699%.
NCCOc1ccc2ccccc2n1 read 69.09%.
CSc1ncc(CN2C[C@@H]3CCC[C@H](C2)C(=O)N3)cn1 read 36.54%.
CCn1c(CN2CC[C@@H](O)C2)nnc1[C@H]1C[C@@H](N)C1 read -14.77%.
CC(OC(=O)c1ccc(C(F)(F)F)cc1)C(N)=O (stereo not drawn) read 67.97%.
NC(=O)CCC(F)(F)F read 0.9226%.
COc1ccc(NC(=O)COc2ccccc2F)cn1 read 70.83%.
COc1ccc(NC(=O)NCc2cc[nH]n2)cc1 read -14.13%.
CCC1(CO)CCCN(CC(=O)Nc2ccn(C)n2)C1 (stereo not drawn) read 33.8%.
Cc1ccccc1NC(=O)Cn1cccn1 read -10.15%.
Cc1ccc(F)c(C(=O)NCCc2n[nH]c(N)n2)c1Cl read 11.1%.
Cc1cc(NC(=O)NCC[S+]([O-])C(C)(C)C)no1 (stereo not drawn) read -4.331%.
CNc1ncc(C(=O)N2CCNCC(O)C2)cn1 (stereo not drawn) read -5.663%.
CS(=O)(=O)c1ccc(CN)cc1C(F)(F)F read 18.44%.
COc1ccccc1S(=O)(=O)N1CCCCC1CN (stereo not drawn) read 32.57%.
CNCc1nc(-c2ccccc2)c[nH]1 read 25.79%.
Cc1nn(C)c(C(=O)NCCCn2ccnc2)c1Cl read 7.428%.
CCCC(=O)N1CCC2(CC1)NCCc1[nH]cnc12 read 6.318%.
CC(C)Oc1c(Cl)cccc1NCC(=O)N(C)C read -22.18%.
NCC(O)c1c(Cl)cccc1Cl (stereo not drawn) read 10.61%.
Cc1c[nH]c(C(=O)N2CCCC[C@H](N(C)C)C2)n1 read 12.47%.
CNS(=O)(=O)c1ccc(CNc2cccc(C)n2)cc1 read -4.956%.
CN(C(=O)[C@@H](N)Cc1ccccc1)C1CCCC1 read 36.03%.
CN(C)C(=O)COC(=O)c1ccc2ccccc2n1 read 57.85%.
Cc1ncsc1C(=O)N(C)c1ncccc1C#N read -5.807%.
COc1cc(-c2nc(CN)no2)cc(OC)c1OC read 19.29%.
c1cn2c(n1)CN(Cc1nc(C3CC3)no1)CC2 read 22.12%.
COCCC(=O)Nc1ccc(OCC(F)(F)F)nc1 read 39.96%.